HIV-1 NL4-3 point mutations in protease: replication capacity

Data from the supplement of Al-Mawsawi et al. 2014, doi:10.1186/s12977-014-0124-6.

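Seven fragments of pNL4-3 were mutated by error-prone PCR, and each virus pool was passaged in CEM T cells. The RC index is the frequency of a change after passage round 2 divided by its frequency in the plasmid library.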

Protein: protease of HIV-1 NL4-3, numbered from its first residue. The source prints no sequence; the chain below is taken from UniProt P12497, a closely related isolate, and fits the source at the 87 positions it covers.
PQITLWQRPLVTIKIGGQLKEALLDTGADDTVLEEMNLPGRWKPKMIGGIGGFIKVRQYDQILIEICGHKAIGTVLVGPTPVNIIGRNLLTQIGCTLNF
The overlapping Gag p6 frame may change too; the source does not say.
Effects on overlapping genes or RNA elements are not listed.

Values are the RC index; higher means better tolerated. The authors read about 0.1 or less as lethal, 0.1-0.2 as attenuated and 0.2 or more as tolerated.
Substitutions are written as wild-type residue, site number, new residue.
Input reads are the counts in the plasmid library.
Clones carried about five changes per kilobase, which can drag down the index of neutral changes.

Q61K (base C2433A, input reads 273) read 0.156.
D29G (base A2338G, input reads 178) read 0.151.
T96N (base C2539A, input reads 308) read 0.0875.
G94V (base G2533T, input reads 179) read 0.0821.
L63P (base T2440C, input reads 330) read 0.156.
V11F (base G2283T, input reads 108) read 0.0699.
N37I (base A2362T, input reads 437) read 0.0616.
T74A (base A2472G, input reads 411) read 0.0894.
K45I (base A2386T, input reads 541) read 0.0456.
N88K (base T2516A, input reads 429) read 0.0343.
D25G (base A2326G, input reads 165) read 0.0680.
I54F (base A2412T, input reads 290) read 0.101.
L23I (base C2319A, input reads 427) read 0.126.
R8Q (base G2275A, input reads 259) read 0.452.
M36V (base A2358G, input reads 338) read 0.0664.
N37K (base T2363A, input reads 301) read 0.0894.
K70R (base A2461G, input reads 544) read 0.0811.
V82G (base T2497G, input reads 130) read 0.0942.
P39T (base C2367A, input reads 123) read 0.146.
L38M (base T2364A, input reads 394) read 0.0342.
V11I (base G2283A, input reads 443) read 0.260.
P39A (base C2367G, input reads 51) read 0.176.
G40A (base G2371C, input reads 81) read 0.0831.
V32L (base G2346T, input reads 72) read 0.0935.
T12S (base A2286T, input reads 477) read 0.0238.
I64T (base T2443C, input reads 483) read 0.0507.
V32E (base T2347A, input reads 218) read 0.0309.
V11G (base T2284G, input reads 151) read 0.0125.
N83D (base A2499G, input reads 541) read 0.0589.
C95Y (base G2536A, input reads 826) read 0.314.
A22D (base C2317A, input reads 105) read 0.513.
V82A (base T2497C, input reads 367) read 0.127.
N98I (base A2545T, input reads 439) read 0.0391.
N83I (base A2500T, input reads 587) read 0.0543.
V32A (base T2347C, input reads 120) read 0.710.
G40R (base G2370C, input reads 70) read 0.0641.
I85V (base A2505G, input reads 254) read 0.0868.
Q58H (base G2426T, input reads 217) read 0.0620.

A selection of 4 entries from above:

| change | base | input reads | RC index |
|---|---|---|---|
| G40A | G2371C | 81 | 0.0831 |
| P39T | C2367A | 123 | 0.146 |
| L38M | T2364A | 394 | 0.0342 |
| L23I | C2319A | 427 | 0.126 |

Nucleotide positions follow pNL4-3.
An index over 1, which the authors read as above wild type, was rare (1.9% of all changes in the genome).